Data from PubChem BioAssay AID602481 (Broad Institute, 2012).
The entries are a selection whose mix differs from that of the whole data set. Calls of active or inactive are those of the source. Cut-off read from the data, not from the text of the source: active = inhibition above about 40%; inconclusive = no clear call, values can overlap the other calls; inactive = below that.

The compounds below were run on 7,8-diaminopelargonic acid synthase BioA (Mycobacterium tuberculosis) (assay: M. tuberculosis BioA enzyme inhibitors, primary screen, biochemical, plate reader, single point, HTS (AID 602481)). Conditions: purified M. tuberculosis BioA enzyme, at 9.99 µM, hits give high values.

Row | Compound | inhibition
1 | CP(=O)(Nc1ccc(Cl)cc1Cl)Oc1ccccc1 (stereo unspecified) | inactive: 2.57%
2 | O=C1C(O)=C([N+](=O)[O-])C(=O)C(O)=C1[N+](=O)[O-] | inactive: -0.799%
3 | COc1ccccc1OP(C)(=O)Nc1ccc(C)c(C)c1 (stereo unspecified) | inactive: -1.06%
4 | O=[N+]([O-])c1cc([N+](=O)[O-])c(Nc2ccccn2)c([N+](=O)[O-])c1 | inactive: 1.71%
5 | COc1ccccc1OP(C)(=O)Nc1ccc(C)cc1C (stereo unspecified) | inactive: 0.549%
6 | CP(=O)(Nc1ccccn1)Oc1ccccc1 (stereo unspecified) | inactive: -0.584%
7 | CCc1ccc(OP(C)(=O)O)cc1 | inactive: -2.17%
8 | COc1ccccc1OP(C)(=O)Nc1ccc(Br)cc1 (stereo unspecified) | inactive: -2.26%
9 | COc1ccc(OP(C)(=O)Nc2ccccn2)cc1 (stereo unspecified) | inactive: -1.43%
10 | CN(C)CCOC(=O)C(O)(c1ccccc1)C1CCCC1 (stereo unspecified) | inactive: -2.07%
11 | COc1ccccc1OP(C)(=O)Nc1ccccc1Br (stereo unspecified) | inactive: 0.003%
12 | CC(C)(C)c1ccc(OP(C)(=O)O)cc1 | inactive: 1.66%
13 | CP(=O)(Nc1ccc(Cl)cc1)Oc1ccc(F)cc1 (stereo unspecified) | inactive: 1.54%
14 | CCN(CC)CC(O)COC(=O)C(O)(c1ccccc1)C1CCCCC1 (stereo unspecified) | inactive: 1.97%
15 | O=C(OCCCN1CCCC1)C(O)(c1ccccc1)C1CCCCC1 (stereo unspecified) | inactive: -0.0455%
16 | COc1ccccc1OP(C)(=O)Nc1c(C)n(C)n(-c2ccccc2)c1=O (stereo unspecified) | inactive: 1.2%
17 | CCc1ccc(OP(C)(=O)Nc2cccnc2)cc1 (stereo unspecified) | inactive: -0.731%
18 | CP(=O)(Oc1ccccc1)N1CCOC1=O (stereo unspecified) | inactive: -1.17%
19 | CCOC(=O)c1ccc(NP(C)(=O)Oc2ccc(Cl)cc2)cc1 (stereo unspecified) | inactive: 2.04%
20 | CP(=O)(OC12CC3CC(CC(C3)C1)C2)OC12CC3CC(CC(C3)C1)C2 | inactive: -1.34%
21 | Cc1cc(-c2cccc3ccccc23)c(C)cn1.O=[N+]([O-])c1cc([N+](=O)[O-])c(O)c([N+](=O)[O-])c1 | inactive: 0.547%
22 | Cc1c(C(c2ccc3c(c2)OCO3)c2c(C)n(C)n(-c3ccccc3)c2=O)c(=O)n(-c2ccccc2)n1C.O=[N+]([O-])c1cc([N+](=O)[O-])c(O)c([N+](=O)[O-])c1 | inactive: -2.03%
23 | COc1ccc(OP(C)(=O)Nc2cccc(Br)c2)cc1 (stereo unspecified) | inactive: 3.63%
24 | CN(C)CCOC(=O)C(O)(c1ccccc1)C1CCCCC1 (stereo unspecified) | inactive: -0.735%
25 | COc1ccc(NP(C)(=O)Oc2ccccc2OC)cc1 (stereo unspecified) | inactive: -2.04%
26 | CP(=O)(Nc1ccc2c(c1)OCCO2)Oc1ccccc1 (stereo unspecified) | inactive: 0.75%
